Test results as given in patent US7767240B2, “Microbiological control in poultry processing” (priority 2001, dated 2010).

Assays:
[1] = set-up: species or system chicken; conditions: 20 ppm Cl2 equivalent, 1 = better tasting sample
[2] = Skin pigmentation, Minolta Color Meter (Example 6); set-up: species or system chicken; conditions: for Mean Pre-Chill Minolta Value B / Mean Pre-Chill Minolta Value L / Mean Pre-Chill Minolta Value a: before chilling; for Mean Post-Chill Minolta Value L / Mean Post-Chill Minolta Value a / Mean Post-Chill Minolta Value b: after chilling

Compound: CC1(C)C(=O)N(Br)C(=O)N1Br [DBDMH, 1,3-dibromo-5,5-dimethylhydantoin]
- Tasting Ranking, Breast Meat, Mean ([1]; mean of 10 panelists): 1.6 a
- Tasting Ranking, Thigh Meat, Mean ([1]; mean of 10 panelists): 1.4 a
- Tasting Ranking, Breast Meat, S1 ([1]; panelist S1): 1
- Tasting Ranking, Thigh Meat, S1 ([1]; panelist S1): 2
- Tasting Ranking, Breast Meat, S2 ([1]; panelist S2): 2
- Tasting Ranking, Thigh Meat, S2 ([1]; panelist S2): 1
- Tasting Ranking, Breast Meat, S3 ([1]; panelist S3): 2
- Tasting Ranking, Thigh Meat, S3 ([1]; panelist S3): 1
- Tasting Ranking, Breast Meat, S4 ([1]; panelist S4): 2
- Tasting Ranking, Thigh Meat, S4 ([1]; panelist S4): 2
- Tasting Ranking, Breast Meat, S5 ([1]; panelist S5): 1
- Tasting Ranking, Thigh Meat, S5 ([1]; panelist S5): 2
- Tasting Ranking, Breast Meat, S6 ([1]; panelist S6): 2
- Tasting Ranking, Thigh Meat, S6 ([1]; panelist S6): 1
- Tasting Ranking, Breast Meat, S7 ([1]; panelist S7): 2
- Tasting Ranking, Thigh Meat, S7 ([1]; panelist S7): 1
- Tasting Ranking, Breast Meat, S8 ([1]; panelist S8): 1
- Tasting Ranking, Thigh Meat, S8 ([1]; panelist S8): 1
- Tasting Ranking, Breast Meat, S10 ([1]; panelist S10): 1
- Tasting Ranking, Thigh Meat, S10 ([1]; panelist S10): 1
- Mean Pre-Chill Minolta Value B ([2]; 5 ppm group): 13.61 a
- Mean Pre-Chill Minolta Value L ([2]; 5 ppm group): 58.80 a
- Mean Pre-Chill Minolta Value a ([2]; 5 ppm group): 4.67 a
- Mean Post-Chill Minolta Value L ([2]; 5 ppm): 52.68 a
- Mean Post-Chill Minolta Value a ([2]; 5 ppm): 5.42 a
- Mean Post-Chill Minolta Value b ([2]; 5 ppm): 15.64 a
- Mean Pre-Chill Minolta Value B ([2]; 10 ppm group): 13.64 a
- Mean Pre-Chill Minolta Value L ([2]; 10 ppm group): 59.97 a
- Mean Pre-Chill Minolta Value a ([2]; 10 ppm group): 4.31 a
- Mean Post-Chill Minolta Value L ([2]; 10 ppm): 53.19 a
- Mean Post-Chill Minolta Value a ([2]; 10 ppm): 5.69 a
- Mean Post-Chill Minolta Value b ([2]; 10 ppm): 15.75 a
- Mean Pre-Chill Minolta Value B ([2]; 15 ppm group): 13.81 a
- Mean Pre-Chill Minolta Value L ([2]; 15 ppm group): 58.43 a
- Mean Pre-Chill Minolta Value a ([2]; 15 ppm group): 4.84 a
- Mean Post-Chill Minolta Value L ([2]; 15 ppm): 54.21 a
- Mean Post-Chill Minolta Value a ([2]; 15 ppm): 5.55 a
- Mean Post-Chill Minolta Value b ([2]; 15 ppm): 15.64 a
- Mean Pre-Chill Minolta Value B ([2]; 20 ppm group): 13.67 a
- Mean Pre-Chill Minolta Value a ([2]; 20 ppm group): 4.99 a
- Mean Post-Chill Minolta Value a ([2]; 20 ppm): 5.49 a
- Mean Post-Chill Minolta Value b ([2]; 20 ppm): 15.80 a
- Mean Pre-Chill Minolta Value B ([2]; 25 ppm group): 13.50 a
- Mean Pre-Chill Minolta Value L ([2]; 25 ppm group): 58.97 a
- Mean Pre-Chill Minolta Value a ([2]; 25 ppm group): 4.68 a
- Mean Post-Chill Minolta Value L ([2]; 25 ppm): 54.25 a
- Mean Post-Chill Minolta Value a ([2]; 25 ppm): 5.63 a
- Mean Post-Chill Minolta Value b ([2]; 25 ppm): 15.76 a
